PSTVd stem 3 mutant pool in Nicotiana benthamiana

PSTVd intermediate strain, stem 3: wild type GUGGUUCCGGAACCGC, pool pattern GUGGUUCCGNANNCNN; upper and lower strand joined, each 5' to 3', the first 8 letters being the upper strand.

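Three N. benthamiana plants were inoculated with the whole mutant pool. Samples came from the inoculated region at 5 days, the leaf margin at 10 and upper systemic leaves at 12.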

Values are reads per thousand in the sample; higher means more abundant, 0 means not found.
Each site shows the three plants.
"Pool" is the share in the plasmid pool used as inoculum, on the same scale.
The inoculated region was read from the minus strand, the other sites from the plus strand.
With 27,691-54,225 reads a sample, very low values are single reads.
For reference, wild type rose from 17.3 per thousand in the pool to 330, 345, 235 (inoculated region), 794, 766, 816 (leaf margin) and 830, 792, 869 (systemic leaves).
The authors trace changes outside the varied positions to PCR and sequencing errors or to mutation in the plant; presence does not show that a variant is infectious alone.

sequence,pool,inoculated region,leaf margin,systemic leaves
AUGGUUCCGGAAUCGU,0.0308,0 0 0,0 0 0,0 0 0
GUGGUUCAGUACCCUA,0.0154,0 0 0,0 0 0,0 0 0
GUGGUUCCGCAUACCA,0.723,0.187 0.518 0.108,0 0 0,0 0 0
GUGGUUCCGCAGACAC,0.939,0.933 0.668 0.730,0 0 0,0 0 0
GUGGUUCCGGAUGCGC,1.40,0.293 0.690 0.594,0 0.0318 0,0.0373 0 0
GUGGUUCCGCAUGCGU,0.816,0.293 0.302 0.270,0 0 0.0361,0 0 0
GUGGUUCCGCACCCGC,0.754,0.506 0.173 0.378,0 0 0.0361,0 0 0
GUGGUUCCGUAGACUG,0.877,0.293 0.345 0.189,0 0 0,0 0 0
GUGGUUCCGAAACCUU,1.12,0.720 0.539 1.13,0.368 0 0,0 0 0
GUGGUUCCGAAGGCUU,1.49,0.986 1.08 1.05,1.64 0.891 0.253,1.19 1.20 0.657
GUGGUUCCGGAGUCUA,0.893,1.04 0.755 1.13,0 0 0,0 0 0
GUGGUUCCGGAUACUC,0.831,0.480 0.410 0.216,0 0 0.0722,0 0 0
GUGGUUCCGGAUUCGC,0.985,0.320 0.345 0.135,0.0283 0.0318 0.0361,0 0 0
GUGGUUCCGUAAGCGU,0.846,0.320 0.518 0.378,0 0 0,0 0 0
GUGGUUCCGAAGACUG,1.05,0.880 0.668 0.865,0.0283 0.0318 0,0 0 0
GUGGUUCCGCAUUCGC,0.785,0.240 0.323 0.351,0 0 0,0 0 0
GUGGUUCCGUAAACGG,0.769,0.267 0.367 0.189,0 0.0318 0,0 0 0
GUGGUUCCGAAGCCCA,1.09,0.960 0.582 1.03,0 0.0318 0.0361,0 0 0
GUGGUUCAGUAAGCCC,0.0154,0 0 0,0 0 0,0 0 0
GUGGUUCCGAACGCGG,0.677,0.373 0.323 0.189,0 0 0.0361,0 0 0
GUGGUUCCGUAAUCUC,0.708,0.240 0.367 0.108,0 0.0318 0,0 0 0
GUGGUUCCGUAAGCAG,0.908,0.320 0.302 0.108,0.0283 0 0,0 0 0
GUGGUUCCGGAGUCUC,0.769,0.853 0.712 0.892,0 0.0318 0.542,0 0 0
GUGGUUCCGGACCCAG,0.939,0.187 0.302 0.486,0 0.0318 0.0722,0 0 0
GUGGUUCCGGACCCCG,0.754,0.453 0.345 0.135,0 0 0,0 0 0
GUGGUUCCGGAGUCCU,2.22,1.47 1.29 1.43,1.84 1.27 0.325,1.08 1.53 0.535
GUGGUUCCGUAGACAA,0.800,0.800 0.755 0.838,0.0283 0.0318 0.542,0 0 0
GUGGUUCCGCACGCUA,0.970,0.453 0.474 0.513,0 0 0,0 0.0184 0
GUGGUUCCGCAUUCCG,0.954,0.213 0.302 0.135,0 0 0,0 0 0
GUGGUUCCGGAGCCGG,0.800,0.267 0.302 0.108,0 0.0636 0.0722,0 0 0
GUGGUUCCGGAACCUA,0.939,0.320 0.194 0.216,0 0.0318 0,0.0186 0.0184 0
GUGGUUCCGUAGCCGU,1.46,1.17 0.755 0.946,0 0 0,0 0 0
GUGGUUCCGAAAUCCU,0.739,0.800 0.625 0.784,0 0.954 0.289,0 0 0
GUGGUUCCGUAAACCG,0.585,0.400 0.194 0.216,0.0283 0.0636 0,0 0 0
GUGGUUCCGGAGGCUU,1.03,0.800 0.647 0.973,0 0.891 0.397,0 0 0
GUGGUUCCGUAUUCUA,0.954,0.373 0.431 0.324,0 0.0636 0,0 0 0
GUGGUUCCGUAGUCAC,0.908,0.746 0.647 0.838,0 1.15 0.361,0 0 0
GUGGUUCCGAAUGCCC,0.831,0.400 0.259 0.351,0.0283 0 0.0722,0 0 0
GUGGUUCCGGAAUCUU,0.908,0.693 0.755 0.919,0.0283 0 0.0361,0 0 0
GUGGUUCCGCAAGCCA,0.769,0.560 0.280 0.324,0.0283 0 0,0 0 0
GUGGUUCCGCACCCUC,1.00,0.373 0.431 0.270,0 0 0,0 0 0
GUGGUUCCGCAAGCUC,0.631,0.400 0.453 0.0540,0 0.0318 0,0 0 0
GUGGUUCCGAACCCAG,0.769,0.746 0.561 0.973,0.0283 0 0.361,0 0 0
GUGGUUCCGAAUACGU,1.20,0.720 0.841 0.919,0 0 0,0 0 0.0730
GUGGUUCCGUACUCCC,0.831,0.293 0.453 0.270,0 0.0318 0.0361,0 0 0
GUGGUUCCGUACCCAC,0.846,0.267 0.323 0.270,0 0 0,0 0 0
GUGGUUCCGCAUACGU,0.800,0.480 0.453 0.324,0 0 0,0 0 0
GUGGUUCCGCACUCAG,0.908,1.01 0.647 0.973,0 0 0.0722,0 0 0
GUGGUUCCGGAGGCGA,0.662,0.453 0.302 0.270,0 0 0,0 0 0
GUGGGUCCGGAAGCCG,0.0154,0 0 0,0 0 0,0 0 0
GUGGUUCCGCAACCUG,0.908,0.373 0.474 0.297,0 0 0,0 0 0
GUGGUUACGGAACCGA,0.0154,0.0267 0.0216 0,0 0 0,0 0.0184 0
GUGGUUCCGGAGACAA,0.970,1.09 0.776 1.54,0.425 0.891 0.614,0 0 0

The last 4 entries again:

* GUGGGUCCGGAAGCCG (pool 0.0154): inoculated region 0 0 0; leaf margin 0 0 0; systemic leaves 0 0 0
* GUGGUUCCGCAACCUG (pool 0.908): inoculated region 0.373 0.474 0.297; leaf margin 0 0 0; systemic leaves 0 0 0
* GUGGUUACGGAACCGA (pool 0.0154): inoculated region 0.0267 0.0216 0; leaf margin 0 0 0; systemic leaves 0 0.0184 0
* GUGGUUCCGGAGACAA (pool 0.970): inoculated region 1.09 0.776 1.54; leaf margin 0.425 0.891 0.614; systemic leaves 0 0 0

Reference: Wu et al. 2024, doi:10.1371/journal.ppat.1012142.